Results published in patent US20160228506A1, “Compositions and Formulations for Prevention and Reduction of Tumorigenesis, Cancer Cell Proliferation and Invasion, and Methods of Production and Use Thereof in Cancer Treatment” (PRONUTRIA, INC., priority 2013, published 2016).

Assay: Anti-FLAG ELISA of protein secretion in Aspergillus niger
Conditions: for ELISA 10 ml shake flask: 10 ml minimal medium, three days; for ELISA 1st MTP: primary transformants, 96 deep well, 72 hrs, culture supernatant; for ELISA 2nd MTP: retest after single spore purification

Substance	ELISA 10 ml shake flask [mg/L]	ELISA 1st MTP [mg/L]	ELISA 2nd MTP [mg/L]
SEQID-00218: nutritive polypeptide (GTIENLEEAKKKLLKDVEVLSQRLEEKALAYDKLEKTKTRLQQELDDLLVDLDHQ; listed as Bos taurus)	2.1 to 13.3	28.2 to 69.3	0.4 to 191.7
SEQID-00897	0.6 to 2.2	11.9 to 21.4	3.6 to 17.5
